A mixed list of measured activities; the numbers were collected in NIAID ChemDB.

All rows: tests in culture; species: HIV-1; cell line: MT-4; read by: p24; read-out: EC95

ECn: concentration that inhibits the pathogen or its effect by n%.

SMILES,mutations,strain,value
CC1NCCn2c1nc(C(=O)NCc1ccc(F)cc1)c(O)c2=O,-,-,<50 µM
O=C1c2c(O)c(=O)n([C@@H]3CCCC[C@H]3O)c(=O)n2CCN1Cc1ccc(F)cc1,-,-,<10 µM
CC(C)[C@H](NC(=O)OCc1ccccn1)C(=O)N[C@@H](Cc1ccccc1)[C@@H](O)C[C@H](Cc1ccccc1)NC(=O)OCc1cccnc1,PR-L10R L63P V82T,NL4-3,3 µM
CN(C)CC1c2nc(C(=O)NCc3ccc(F)cc3)c(O)c(=O)n2CCN1Cc1cocn1,-,-,1–10 µM
O=C1c2c(O)c(=O)n(C3CCSCC3)c(=O)n2CCN1Cc1ccc(F)cc1,-,-,<10 µM
Cc1cc(CNC(=O)c2nc3n(c(=O)c2O)CCNCC3N(C)C(=O)C(=O)N(C)C)ccc1F,-,-,<1 µM
Cc1cc(C)c(-n2nnnc2SCC(=O)Nc2cccc(Cl)c2C#N)c(C)c1,-,-,<10 µM
CN(C)CCN1CCn2c(nc(C(=O)NCc3ccc(F)cc3)c(O)c2=O)C1(C)C,-,-,<1 µM
COC1CN(c2ccc3c(COc4ccc(Cl)c(Oc5cc(Cl)cc(C#N)c5)c4)[nH]nc3n2)C1,-,-,<20 µM
CCN1CCn2c(nc(C(=O)NCc3ccc(F)cc3)c(O)c2=O)C(N(C)C(=O)C(=O)N(C)C)C1,-,-,<1 µM
N#Cc1cc(Cl)cc(Oc2cc(OCc3nc4cccc(Cl)c4o3)ccc2Cl)c1,-,-,<20 µM
CN1CCn2c(nc(C(=O)NCc3ccc(F)cc3)c(O)c2=O)C(N(C)C(=O)C(=O)N2CCOCC2)C1,-,-,<1 µM
N#Cc1cc(Cl)cc(Oc2cc(OCc3[nH]nc4nc(N5CC(N)C5)ccc34)ccc2Cl)c1,-,-,<20 µM
CC(=O)N1CCn2c(nc(C(=O)NCc3ccc(F)cc3)c(O)c2=O)C(N(C)Cc2ccccc2)C1,-,-,<1 µM
O=C1c2c(O)c(=O)n(C3CCSc4ccccc43)c(=O)n2CCN1Cc1ccc(F)cc1,-,-,<10 µM
N#Cc1cc(Cl)cc(Oc2cc(Cl)cc(OCC(=O)Nc3ccc4[nH]cnc4c3Cl)c2)c1,-,-,<20 µM
O=C1c2c(O)c(=O)n(Cc3cscn3)c(=O)n2CCN1Cc1ccc(F)cc1,-,-,<10 µM
CN(CC(=O)Nc1ccccc1[N+](=O)[O-])c1nnnn1-c1cccc2ccccc12,-,-,<10 µM
CS(=O)(=O)c1ccc2c(c1)CCN2C(=O)COc1ccc(Cl)c(Oc2cc(Cl)cc(C#N)c2)c1,-,-,<20 µM
CC(C)n1c(=O)c(O)c2n(c1=O)CCN(Cc1cc3ccccc3cn1)C2=O,-,-,<10 µM
Cc1ccc(-n2nnnc2SCC(=O)Nc2ccccc2Cl)cc1,-,-,<10 µM
CC1(C)CC(n2c(=O)c(O)c3n(c2=O)CCN(Cc2ccc(F)cc2)C3=O)CCO1,-,-,<10 µM
CN1CCn2c(nc(C(=O)NCc3ccc(F)cc3)c(O)c2=O)C(N(C)C(=O)C(=O)N(C)C)C1,-,-,<1 µM
COCCN(C)c1ccc2c(COc3ccc(Cl)c(Oc4cc(Cl)cc(C#N)c4)c3)[nH]nc2n1,-,-,<20 µM
CN1C(C)(C)CC(n2c(=O)c(O)c3n(c2=O)CCN(Cc2ccc(F)cc2)C3=O)CC1(C)C,-,-,<10 µM
O=C(CSc1nnnn1-c1ccccc1Br)Nc1ccccc1[N+](=O)[O-],-,-,<10 µM
COC(=O)N(C)C1CN(C)CCn2c1nc(C(=O)NCc1ccc(F)cc1)c(O)c2=O,-,-,<1 µM
O=C1c2c(O)c(=O)n(-c3ccc(N4CCCCC4)cc3)c(=O)n2CCN1Cc1ccc(F)cc1,-,-,<10 µM
NS(=O)(=O)c1ccc(NC(=O)COc2cc(Cl)cc(Oc3cncc(Br)c3)c2)c(Cl)c1,-,-,<20 µM
CC(C)n1c(=O)c(O)c2n(c1=O)CCN(Cc1ccccc1C#N)C2=O,-,-,<10 µM
N#Cc1cccc(-n2nnnc2SCC(=O)Nc2ccccc2[N+](=O)[O-])c1,-,-,<10 µM

3 of the rows above, restated:

SMILES,mutations,strain,value
COC(=O)N(C)C1CN(C)CCn2c1nc(C(=O)NCc1ccc(F)cc1)c(O)c2=O,-,-,<1 µM
O=C1c2c(O)c(=O)n([C@@H]3CCCC[C@H]3O)c(=O)n2CCN1Cc1ccc(F)cc1,-,-,<10 µM
Cc1cc(CNC(=O)c2nc3n(c(=O)c2O)CCNCC3N(C)C(=O)C(=O)N(C)C)ccc1F,-,-,<1 µM

An empty or dashed field is not shown. a–b is a range or a potency band. Conditions beyond the fields shown may differ between rows.